Results: US20020004584A1, “HIV immune adjuvant therapy” (priority 2000, published 2002)

System: HIV-1-LAI strain
Experiment: HIV-1-LAI replication in PHA-P-activated PBMCs, RT activity in cell supernatants
Type: cell-based
Conditions: doses corresponding to plasmatic concentrations observed in animals and man

“PEG12000-IFN-alfa2b: single PEG12000 molecule conjugated to free amino groups on an IFN alfa-2b molecule via a urethane linkage” was tested, and the HIV replication was “inhibited the HIV replication”.
